A mixed list of measured activities; the numbers were collected in NIAID ChemDB.

All rows: tests in culture; species: Mycobacterium tuberculosis

Neighbouring rows are from separate reports. MIC bound comes from a single tested concentration. Blank or dashed fields: not listed here. ECn: concentration that inhibits the pathogen or its effect by n%. MIC50, MIC90 and the like: level of inhibition, or share of isolates inhibited. Percent inhibition refers to the dose given; in toxicity tests it is the harm to the cells.

smiles	strain	endpoint	cell line	dose	read by	result
CCCCC(O)c1c(-c2ccccc2)c(-c2ccccc2)n2ccc(C#N)cc12	H37Rv	inhibition	VERO	6.25 µg/mL	-	99%
Cl.Cl.NOCc1cnccn1	H37Rv	MIC	-	-	BACTEC	≥12.5 µg/mL
CC1=C2C(=CO[C@H](C)[C@H]2C)C(=O)C(C(=O)O)=C1O	M.AV	inhibition	-	100 µg/mL	-	79%
CC[C@H]1OC(=O)[C@H](C)[C@@H](O[C@H]2C[C@@](C)(OC)[C@@H](O)[C@H](C)O2)[C@H](C)[C@@H](O[C@@H]2O[C@H](C)C[C@H](N(C)C)[C@H]2O)[C@](C)(O)C[C@@H](C)C(=O)[C@H](C)[C@@H](O)[C@]1(C)O	H37Rv	MIC	-	-	-	>8 µg/mL
O=C1/C(=C/c2ccccc2)CN(C(=O)/C=C/c2ccc(Cl)c(Cl)c2)C/C1=C\c1ccccc1	H37Rv	inhibition	-	6.25 µg/mL	-	2%
Oc1c(Cl)cc(Cl)cc1Sc1cc(Cl)cc(Cl)c1O	-	MIC90	-	-	-	128 µg/mL
O=NNc1ccc(C(=O)O)cn1	H37Rv	MIC bound	-	-	BACTEC	>12.5 µg/mL
O=[N+]([O-])c1ccc(CN2CC3CN(c4ccccc4)CC3C2)o1	H37Rv	MIC90	-	-	resazurin	0.031 µg/mL
CC(C)CC(O)c1c(-c2ccccc2)c(-c2ccccc2)n2ccc(C#N)cc12	H37Rv	inhibition	-	6.25 µg/mL	-	0%
CC(=O)Nc1ccc(/C=N/NC(=S)NCCCN2CCN(CCCNC(=S)N/N=C/c3ccc(NC(C)=O)cc3)CC2)cc1	H37Rv	inhibition	-	12.5 µg/mL	BACTEC	6%
O=C(NN1C(=O)c2ccccc2C1=O)c1cc(O)cc(O)c1	H37Ra	MIC50	-	-	resazurin	>50 µg/mL
CN(C)c1ccc(-n2c(=O)oc3ccccc3c2=O)cc1	My 331/88	MIC	-	-	-	>125 µM
CCOC(=O)c1c(-c2ccccc2)nn(CC(N)=O)c1CO	H37Rv	MIC bound	-	-	-	>6.25 µg/mL
COC(=O)[C@H]1[C@H]2C[C@@H]3c4[nH]c5cc(OC)ccc5c4CCN3C[C@H]2C[C@@H](OC(=O)c2cc(OC)c(OC)c(OC)c2)[C@@H]1OC	-	MIC90	-	-	-	8 µg/mL
CCC(C)N1CCN(c2cc(=O)c3nc4c(oc3c2)c2c(=O)c3c(O)c(C)c5c(c34)=C(O)[C@@](C)(O/C=C/[C@H](OC)[C@@H](C)[C@@H](OC(C)=O)[C@H](C)[C@H](O)[C@H](C)[C@@H](O)[C@@H](C)/C=C/C=C(/C)C(=O)N2)O5)CC1	20 strains	MIC90	-	-	-	0.07 µg/mL
NC(=O)c1ncn([C@@H]2O[C@H](CO)[C@@H](O)[C@H]2O)n1	-	MIC50	-	-	-	16 µg/mL
CCCCC(=O)c1ccn2c(-c3ccccc3)c(-c3ccccc3)c(C(OC)c3ccccc3)c2c1	H37Rv	inhibition	-	6.25 µg/mL	-	81%
CC(C)(C)c1ccc(N2CCC3(CCN(Cc4ccc([N+](=O)[O-])o4)CC3)CC2)cc1	H37Rv	MIC90	-	-	resazurin	<0.016 µg/mL
Cc1c2ccncc2c(CO[C@@H]2O[C@H](CO)C(O)C2O)c2c3ccccc3n(C)c12	H37Rv	inhibition	-	6.25 µg/mL	resazurin	82%
CC[C@@H](CO)NCCN[C@@H](CC)CO	Erdman	MIC	-	-	-	1 µg/mL
Cc1ccc(-n2c(=O)[nH]c3ccccc3c2=O)cc1	My 331/88	MIC	-	-	-	>500 µM
CC(C)(C)c1cccc(N2CCC3(CCN(Cc4ccc([N+](=O)[O-])o4)CC3)CC2)c1	H37Rv	MIC90	-	-	resazurin	<0.016 µg/mL
Cn1cc(NC(=O)c2cc(NC(=O)CCCCCCCCCC(=O)Nc3cc(C(=O)Nc4cc(C(=O)NCCC(N)=[NH2+])n(C)c4)n(C)c3)cn2C)cc1C(=O)NCCC(N)=[NH2+]	H37Rv	MIC	-	-	BACTEC	6.25 µg/mL
O=C1c2ccccc2C(=O)N1c1ccc(S(=O)(=O)c2ccc(N3C(=O)c4ccccc4C3=O)cc2)cc1	H37Rv	MIC90	-	-	resazurin	>125 µg/mL
Cn1c(O)c(N=NC(=O)c2ccc(O)cc2O)c2ccccc21	H37Ra	MIC50	-	-	resazurin	>50 µg/mL
O=C(/C=C/C(=O)N1C/C(=C\c2ccccc2)C(=O)/C(=C/c2ccccc2)C1)Nc1ccccc1	H37Rv	inhibition	-	6.25 µg/mL	-	0%
CO[C@H]1/C=C/O[C@@]2(C)Oc3c(C)c(O)c4c(=O)c(c5oc6cc(N7CCN(CC(C)C)CC7)cc(=O)c6nc5c4c3=C2O)NC(=O)/C(C)=C\C=C\[C@H](C)[C@H](O)[C@@H](C)[C@@H](O)[C@@H](C)[C@H](OC(C)=O)[C@@H]1C	20 strains	MIC90	-	-	-	0.035 µg/mL
CCCCCCCCCCCCN1C(=O)CSC12CCCCC2	H37Ra	inhibition	-	25 µg/mL	resazurin	5%
S=C1NC[C@H](Cc2ccccc2)N1C[C@@H]1CCCN1C[C@H](Cc1ccccc1)N1C[C@H](Cc2ccccc2)N(CC23CC4CC(CC(C4)C2)C3)C1=S	H37Rv	MIC	-	-	broth dilution	3.13 µg/mL
O=C(N=Nc1c(O)[nH]c2ccc(Br)cc12)c1cccs1	H37Ra	MIC50	-	-	resazurin	>50 µg/mL
c1ccc(CCN2CCN([C@@H](Cc3ccccc3)CN3CCCC3CN3CCNC[C@@H]3Cc3ccccc3)C[C@H]2Cc2ccccc2)cc1	H37Rv	MIC	-	-	broth dilution	3.9 µg/mL
CC(C)(C)C(O)c1c(-c2ccccc2)c(-c2ccccc2)n2ccc(C#N)cc12	H37Rv	MIC	VERO	-	-	6.25 µg/mL
COc1cccc2c1C(=O)c1c(O)c3c(c(O)c1C2=O)C[C@@](O)(/C(C)=N/NC(=O)c1cccc([N+](=O)[O-])c1)C[C@H]3O[C@H]1CC(N)[C@H](O)[C@H](C)O1	PZA-R	MIC	-	-	-	12.5 µg/mL
CCCCCCCCCCCCN1C(=O)C(CC(=O)O)SC12CCCCCC2	H37Ra	EC50	-	-	resazurin	<25 µg/mL
CC1CCC(CN2CCN([C@@H](Cc3ccccc3)CN3CCCC3CN3CCNC[C@@H]3Cc3ccccc3)C[C@@H]2Cc2ccccc2)CC1	H37Rv	MIC	-	-	broth dilution	3.9 µg/mL
CC1CCN(C(=S)S)CC1.CC1CCNCC1	PZA-R	MIC	-	-	-	0.8 µg/mL
O=C(/C=C/C(=O)N1C/C(=C\c2ccccc2)C(=O)/C(=C/c2ccccc2)C1)Nc1ccc(Cl)c(Cl)c1	H37Rv	inhibition	-	6.25 µg/mL	-	74%
NNC(=O)c1nnc(NN)[nH]c1=O	H37Rv	MIC bound	-	-	BACTEC	>12.5 µg/mL
CCCCCCCCCCCCN1C(=O)C(CC(=O)O)SC12CCCC2	H37Ra	EC50	-	-	resazurin	<25 µg/mL
O=c1[nH]c2ccccc2c(=O)n1-c1ccc(Cl)c(Cl)c1	My 331/88	MIC	-	-	-	>250 µM
O=[n+]1c2ccccc2n([O-])c2cc(Br)ccc21	H37Rv	MIC bound	-	-	BACTEC	≤12.5 µg/mL
COC(c1ccccc1)c1c(-c2ccccc2)c(-c2ccccc2)n2ccc(C(C)=O)cc12	H37Rv	inhibition	-	6.25 µg/mL	-	80%
O=C(Nc1ccc(Cl)cc1)Nc1nnc2nc(C(C(=O)c3ccsc3)c3nc4nnc(NC(=O)Nc5ccc(Cl)cc5)n4[nH]c3=O)c(=O)[nH]n12	H37Rv	inhibition	-	12.5 µg/mL	BACTEC	61%
COC(=O)c1ccc(N2C(=O)c3cccc([N+](=O)[O-])c3C2=O)cc1O	H37Rv	MIC50	-	-	resazurin	>50 µg/mL
O=C(/C=C/C=C/c1ccc2c(c1)OCO2)NC1C2CC3CC(C2)CC1C3	H37Rv	MIC	-	-	resazurin	1.42 µM
CCC(C)c1cnc(CC(C)C)c(=O)[nH]1	H37Rv	MIC bound	-	-	BACTEC	>12.5 µg/mL
COC(=O)[C@H]1[C@H]2C[C@@H]3c4[nH]c5cc(OC)ccc5c4CCN3C[C@H]2C[C@@H](OC(=O)/C=C/c2cc(OC)c(OC)c(OC)c2)[C@@H]1OC	-	MIC50	-	-	-	32 µg/mL
O=C1/C(=C\c2ccccc2)CN(C(=O)c2ccc(/C=C/C(=O)c3ccccc3)cc2)C/C1=C/c1ccccc1	H37Rv	inhibition	-	6.25 µg/mL	-	8%
CCCCCCCCN1C(=O)C(CC(=O)O)SC12CCCCC2	H37Ra	EC50	-	-	resazurin	>25 µg/mL
C[C@@H]1[C@@H](NC(=O)/C=C/C=C/c2ccc3c(c2)OCO3)C[C@@H](C)C(C)(C)[C@H]1C	H37Rv	MIC	-	-	resazurin	0.18 µM
C/C(=N/NC(=S)N1CCC(C)CC1)c1nccnc1C	INH-r	MIC	-	-	-	1.6 µg/mL
O=c1[nH]c2ccccc2c(=O)n1-c1ccccc1	My 331/88	MIC	-	-	-	>500 µM
O=C1C=C/C(=C(/c2ccc(O)c(S(=O)(=O)O)c2)c2ccccc2C(=O)O)C=C1S(=O)(=O)O	H37Rv	MIC bound	-	-	BACTEC	>12.5 µg/mL
CC1(C)[C@@H]2CC[C@@]1(C)[C@H](O)[C@@H]2NC(=O)/C=C/C=C/c1ccc2c(c1)OCO2	H37Rv	MIC	-	-	resazurin	0.17 µM
Cc1ccc(NC(=O)/C=C/C(=O)N2C/C(=C\c3ccccc3)C(=O)/C(=C/c3ccccc3)C2)cc1	H37Rv	inhibition	-	6.25 µg/mL	-	4%
CCOc1ccc(NC(=O)C(=O)CC(=O)c2c[n+](=O)c3cc(C)c(C)cc3n2[O-])cc1	H37Rv	inhibition	-	12.5 µg/mL	BACTEC	35%
O=[N+]([O-])c1ccc(CN2CC3CN(c4ccc(OC(F)(F)F)cc4)CC3C2)o1	H37Rv	MIC90	-	-	resazurin	<0.016 µg/mL
CC(C)N=C(N)/N=C(\N)NOCCCOc1cc(Cl)c(Cl)cc1Cl	Erdman	MIC	-	-	-	2.2 µg/mL
Cc1cc2c(cc1C)NC1=C(N2)OC(c2ccc3c(c2)OCO3)C1=O	H37Rv	inhibition	-	12.5 µg/mL	BACTEC	-14%
CCCN1CCN(c2cc(=O)c3nc4c(oc3c2)c2c(=O)c3c(O)c(C)c5c(c34)=C(O)[C@@](C)(O/C=C/[C@H](OC)[C@@H](C)[C@@H](OC(C)=O)[C@H](C)[C@H](O)[C@H](C)[C@@H](O)[C@@H](C)/C=C/C=C(/C)C(=O)N2)O5)CC1	20 strains	MIC90	-	-	-	0.07 µg/mL
COC(c1ccccc1)c1c(-c2ccccc2)c(-c2ccccc2)n2ccc(C#N)cc12	H37Rv	inhibition	-	6.25 µg/mL	-	74%
O=C(/C=C/C=C/c1ccc2c(c1)OCO2)NC1CCCCC1	H37Rv	MIC	-	-	resazurin	1.67 µM
CC(COc1ccccc1)NC(C)C(O)c1ccc(O)cc1	-	MIC90	-	-	-	>128 µg/mL
O=C1c2ccccc2C(=O)N1N=Cc1cccc(O)c1O	H37Rv	MIC50	-	-	resazurin	>50 µg/mL
O=C1CN(CO)C(=O)N1CO	H37Rv	inhibition	-	12.5 µg/mL	BACTEC	20%
CO[C@H]1/C=C/O[C@@]2(C)Oc3c(C)c(O)c4c(O)c(c(/C=N/N5CCN(C)CC5)c(O)c4c3C2=O)NC(=O)/C(C)=C\C=C\[C@H](C)[C@H](O)[C@@H](C)[C@@H](O)[C@@H](C)[C@H](OC(C)=O)[C@@H]1C	Erdman	MIC	-	-	-	0.06 µg/mL
Cn1c(C(=O)N=Nc2c(O)[nH]c3ccc(Br)cc23)cc2ccccc21	H37Ra	MIC50	-	-	resazurin	>50 µg/mL
COc1ccc(/C=N/NC(=O)CC(=O)N/N=C/c2ccc(OC)cc2)cc1	H37Rv	MIC bound	-	-	BACTEC	>12.5 µg/mL
CC1(C)[C@@H]2CC[C@@]1(C)[C@@H](NC(=O)/C=C/C=C/c1ccc3c(c1)OCO3)C2	H37Rv	MIC	-	-	resazurin	0.35 µM
CCCCCCCCCCCCN1C(=O)C(CC(=O)O)SC12CCC(C(C)(C)C)CC2	H37Ra	EC50	-	-	resazurin	<25 µg/mL
Cc1cc(C(=O)N=Nc2c(O)[nH]c3ccccc23)n[nH]1	H37Ra	MIC50	-	-	resazurin	>50 µg/mL
CC(C(=O)c1ccc(O)cc1)(c1nc2nnc(N)n2[nH]c1=O)c1nc2nnc(N)n2[nH]c1=O	H37Rv	MIC bound	-	-	BACTEC	>12.5 µg/mL
NNC(=O)c1ccncc1	Erdman	MIC	-	-	-	0.03 µg/mL
Cc1cc(NC(=O)c2ccc(N)cc2)ccc1N=Nc1ccc2c(O)c(N=Nc3ccc(Cl)c(S(=O)(=O)O)c3)c(S(=O)(=O)O)cc2c1	H37Rv	inhibition	-	12.5 µg/mL	BACTEC	18%
COc1cccc(C=NN2C(=O)c3ccccc3C2=O)c1O	H37Ra	MIC50	-	-	resazurin	>50 µg/mL

The last 7 rows once more:

| smiles | strain | endpoint | cell line | dose | read by | result |
|---|---|---|---|---|---|---|
| CC1(C)[C@@H]2CC[C@@]1(C)[C@@H](NC(=O)/C=C/C=C/c1ccc3c(c1)OCO3)C2 | H37Rv | MIC | - | - | resazurin | 0.35 µM |
| CCCCCCCCCCCCN1C(=O)C(CC(=O)O)SC12CCC(C(C)(C)C)CC2 | H37Ra | EC50 | - | - | resazurin | <25 µg/mL |
| Cc1cc(C(=O)N=Nc2c(O)[nH]c3ccccc23)n[nH]1 | H37Ra | MIC50 | - | - | resazurin | >50 µg/mL |
| CC(C(=O)c1ccc(O)cc1)(c1nc2nnc(N)n2[nH]c1=O)c1nc2nnc(N)n2[nH]c1=O | H37Rv | MIC bound | - | - | BACTEC | >12.5 µg/mL |
| NNC(=O)c1ccncc1 | Erdman | MIC | - | - | - | 0.03 µg/mL |
| Cc1cc(NC(=O)c2ccc(N)cc2)ccc1N=Nc1ccc2c(O)c(N=Nc3ccc(Cl)c(S(=O)(=O)O)c3)c(S(=O)(=O)O)cc2c1 | H37Rv | inhibition | - | 12.5 µg/mL | BACTEC | 18% |
| COc1cccc(C=NN2C(=O)c3ccccc3C2=O)c1O | H37Ra | MIC50 | - | - | resazurin | >50 µg/mL |